Data as given in patent publication US10889556B2, “Compositions and methods for inhibiting influenza RNA polymerase PA endonuclease” (The Regents of the University of California, priority 2016, dated 2021).
The structures given here were assigned with low confidence; some may be wrong.

Target: influenza PA endonuclease (Influenza A virus, UniProt C3W5S0)
Test: Endonuclease activity assay (FAM/TAMRA ssDNA-oligo fluorescence)
Type: biochemical, Pandemic H1N1 influenza A

Work on `Cc1cc(=O)c(O)cn1-c1ccc(-c2ccccc2)cc1` yielded an IC50 of 1.3 µM and a pIC50 (Table 4) of 5.9.
